Measurements: the supplement of paper PMC3578754
Fold change is the IC50 on the isolate divided by the IC50 on a reference virus; 1 = unchanged, higher = more resistant. Changes are given against the subtype B consensus. No active / inactive call. The values were gathered from many studies (numbered anew) with different assays, which the source does not name. Most viruses are clinical isolates; some are laboratory strains or clones with known resistance changes. Isolates with mixed residues are left out; stretches that were not sequenced show no change. Round top values that many isolates share are read here as limits; other very high values and 0.1 may be limits too.

How the values were obtained:
Assay in all cases: fold change of IC50 against reference virus; higher = more resistant
[1] = compound: CC(C)Nc1cccnc1N1CCN(C(=O)c2cc3cc(NS(C)(=O)=O)ccc3[nH]2)CC1 [delavirdine]
Method: (§1)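 Cell-culture drug susceptibility tests of virus bearing the reverse transcriptase of each isolate, gathered from many studies.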

[2] = compound: Cc1ccnc2c1NC(=O)c1cccnc1N2C1CC1 [nevirapine]
Method: as §1

[3] = compound: Cc1cn([C@H]2C=C[C@@H](CO)O2)c(=O)[nH]c1=O [stavudine]
Method: as §1

[4] = compound: Cc1cn([C@H]2C[C@H](N=[N+]=[N-])[C@@H](CO)O2)c(=O)[nH]c1=O [zidovudine]
Method: as §1

[5] = compound: Nc1ccn([C@H]2CC[C@@H](CO)O2)c(=O)n1 [zalcitabine]
Method: as §1

[6] = compound: Nc1nc(NC2CC2)c2ncn([C@H]3C=C[C@@H](CO)C3)c2n1 [abacavir]
Method: as §1

[7] = compound: O=C1Nc2ccc(Cl)cc2[C@@](C#CC2CC2)(C(F)(F)F)O1 [efavirenz]
Method: as §1

[8] = compound: O=c1[nH]cnc2c1ncn2[C@H]1CC[C@@H](CO)O1 [didanosine]
Method: as §1

| Test System | fold change of IC50 against reference virus [1] | fold change of IC50 against reference virus [2] | fold change of IC50 against reference virus [3] | fold change of IC50 against reference virus [4] | fold change of IC50 against reference virus [5] | fold change of IC50 against reference virus [6] | fold change of IC50 against reference virus [7] | fold change of IC50 against reference virus [8] |
| --- | --- | --- | --- | --- | --- | --- | --- | --- |
| HIV-1 isolate 788 (reverse transcriptase changes: Q197K Q207E R211K L283I I293V E297K E312A, study 127) | 2.1 | 1.6 | 1.1 | 1.3 | 1.1 | 0.7 | 1.3 | 1.1 |
| HIV-1 isolate 392 (reverse transcriptase changes: V35T T39L I50V V60I D67N K70R K122E D123S I135T K173S Q174K D177E V179I T200K Q207A R211S F214L K219Q V245Q T286A E291D, study 116) | 0.3 | 0.2 | 1.6 | 10 | 1 | 1.2 | 0.2 | 0.9 |
| HIV-1 isolate 1511 (reverse transcriptase changes: T128A I135T T165I T200A F214L A272T I293V K366R A376T A400T, study 54) | 0.8 | 0.9 | 1.1 | 0.9 | 1.1 | 1 | 0.9 | 1 |
| HIV-1 isolate 1210 (reverse transcriptase changes: S48T K122E I135M M184V P243T, study 28) | 0.5 | 0.3 | 0.6 | 0.3 | 1.5 | 1.7 | 0.2 | 1.1 |
| HIV-1 isolate 407 (reverse transcriptase changes: M41L V60I D67N K70R V75M K101E D123E M184V G190S G196E Q207H T215F K219E A272P Q278H E297K, study 109) | 0.2 | 513 | 2 | 33 | 2.3 | 6.1 | 302 | 1.7 |
| HIV-1 isolate 834 (reverse transcriptase changes: K20R K101Q K122E I142V T165I M184V K277R A288S I293V, study 119) | 1.4 | 2.2 | 0.9 | 0.9 | 1.9 | 3.1 | 2.1 | 1.6 |
| HIV-1 isolate 1255 (reverse transcriptase changes: M41L A98S M184V R211K T215F, study 28) | 0.4 | 0.9 | 1.4 | 3.9 | 1.8 | 6.1 | 0.4 | 1.3 |
| HIV-1 isolate 597 (reverse transcriptase changes: P4S E6D K20R M41L K43N E44D T69D V75M A98S K102Q V118I K122D K166R Y181C G190A T200M Q207E L210W R211K T215S E224D L228R, study 40) | 56 | 314 | 3 | 688 | 3 | 4 | 51 | 2 |
| HIV-1 isolate 1265 (reverse transcriptase changes: V35I R83K K122E I135V S162C A272P Q278N V292I G333E Q334H M357T K366R K390R A400T, study 54) | 0.4 | 0.2 | 0.8 | 0.6 | 0.6 | 0.7 | 0.3 | 0.7 |
| HIV-1 isolate 131 (reverse transcriptase changes: M41L P176S M184V T200A R211K T215Y, study 28) | 0.7 | 0.9 | 1.5 | 6.2 | 2 | 6.8 | 0.7 | 1.6 |
| HIV-1 isolate 84 (reverse transcriptase changes: K103N V108I I135T I178L M184V T200A T215Y A272P, study 15) | 42 | 230 | 1.5 | 2.7 | 2.1 | 5.7 | 87 | 1.8 |
